Pooled drug test results. Numbers come from NIAID ChemDB, via PubChem.

All rows: whole-cell or culture tests; species: Human cytomegalovirus

An empty or dashed field is not shown. ECn is the concentration giving n% inhibition of infection, replication or growth. Neighbouring rows are from separate reports.

| smiles | measure | strain | cells | method | result |
|---|---|---|---|---|---|
| Cc1cn([C@H]2C[C@H](O)[C@@H](CO)O2)c(=S)nc1N | EC50 | AD169 | MRC-5 | plaque count | >277.4 µM |
| COC(=O)[C@H](C)NP(=O)(OC[C@H]1C/C1=C/n1cnc2c(N)nc(N)nc21)Oc1ccccc1 | EC50 | AD169 | HFF | cytopathic effect | 11.2 µM |
| CN(C)c1cccc2c(S(=O)(=O)Nc3ccc(NC(=O)C(C)(C)CO)cc3)cccc12 | EC50 | AD169 | HFF | virus yield | <0.7 µM |
| CCCCCCCC/C=C\CCCCCCCOCCCOP(=O)(O)CO[C@H](CO)Cn1ccc(N)nc1=O | EC50 | 1117-R | HFF | plaque count | 0.005 µM |
| CCCCCCCCCCCCCCCCOCCCOP(=O)(O)CO[C@H](CO)Cn1ccc(N)nc1=O | EC50 | C9208/3-3-1 | MRC-5 | plaque count | 0.001 µM |
| Cc1cccn2c(CSCc3ccccc3)cnc12 | EC50 | DAVIS | HEL | plaque count | 0.2 µg/mL |
| COc1ccccc1CNC(=O)C1=Cc2ccncc2CC1 | EC50 | D-10 C4 | HFF | plaque count | 6.2 µM |
| C=Cc1cn([C@@H]2O[C@H](CO)[C@@H](O)[C@@H]2O)c(=S)nc1N | EC50 | T-137 | MRC-5 | plaque count | 57.3 µM |
| Nc1ccn([C@H]2C[C@](O)(CO)CO2)c(=O)n1 | EC50 | AD169 | HFF |  | >100 µM |
| O=c1[nH]c(=S)n([C@@H]2O[C@H](CO)[C@@H](O)[C@@H]2O)cc1/C=C/Br | EC50 | T-137 | MRC-5 | plaque count | >213 µM |
| CC1(C)OCC2(CO[C@H](n3ccc(=O)[nH]c3=O)C2)O1 | EC50 | AD169 | HFF |  | >100 µM |
| Cc1c(Br)cc(Br)c2ncc(CSCc3ccc(F)cc3)n12 | EC50 | AD169 | HEL | plaque count | >5 µg/mL |
| Nc1ncnc2c1ncn2C=C1CC1CO | EC50 | TOWNE | KB | virus yield | <1 µM |
| NC(=O)c1c(Cl)c(-c2cccnc2)n2c1CCCC2 | EC50 | AD169 | HEL | plaque count | 0.07 µM |
| CC(=O)N[C@H]1C[C@@H](n2cnc3c(N)ncnc32)[C@H](O)[C@@H]1O | EC50 |  | HFF |  | >100 µg/mL |
| Nc1nc2c(ncn2[C@@H]2C=C[C@H](CO)[C@@H](O)C2)c(=O)[nH]1 | EC50 | AD169 |  |  | 0.6 µg/mL |
| Nc1nc2c(ncn2C[C@@H]2CC[C@@H](P(=O)(O)O)O2)c(=O)[nH]1 | EC50 | C8805-37 (ganciclovir-resistant) | MRC-5 | plaque count | 0.32 µg/mL |
| Nc1nc(Cl)c2ncn(/C=C3/C[C@H]3CO)c2n1 | EC50 | AD169 | HFF | plaque count | 6.9 µM |
| Nc1nc2c(ncn2COC(CO)CO)c(=O)[nH]1 | EC50 | DAVIS | HFF | plaque count | 0.9 µM |
| Nc1nc2c(ncn2/C=C2/CC2(CO)CO)c(=O)[nH]1 | EC50 | VR4760 (ganciclovir- foscarnet-resistant) | HFF | plaque count | 1.6 µM |
| O=C1c2ccccc2C(=O)N1C1C2CC3CC(C2)CC1C3 | EC50 | DAVIS | HEL | plaque count | >4 µg/mL |
| CC(C)(C)c1nc2ccccn2c1NC(=S)Nc1ccccc1 | EC50 | DAVIS | HEL | cytopathic effect | 27 µg/mL |
| Nc1ccn(C[C@H]2COP(=O)(O)CO2)c(=O)n1 | EC50 | GDGP53 (drug-resistant mutant) | MRC-5 | plaque count | 15.9 µM |
| Cn1cc(C(=O)NCc2ccc(Cl)cc2)c(=O)c2cc(CN3CCOCC3)ccc21 | EC50 | DAVIS | HFF | plaque count | 0.5 µM |
| Nc1nc2c(ncn2[C@@H]2C[C@H](CO)[C@H]2CO)c(=O)[nH]1 | EC75 | Towne (ganciclovir- foscarnet-susceptible) | MRC-5 | plaque count | 10.97 µM |
| CCCCCCCCCCCCCCCCOP(=O)(O)CO[C@H](CO)Cn1ccc(N)nc1=O | EC50 | 759rD100 | HFF | plaque count | 0.08 µM |
| Cc1nc2ccccn2c1NC(=O)Nc1ccccc1 | EC50 | AD169 | HEL | cytopathic effect | 50 µg/mL |
| Nc1nc2c(ncn2COC(CO)CO)c(=O)[nH]1 | EC50 | Isolate 731 UL54 S655L N685S | MRC-5 | ELISA | 6.7 µM |
| [O-][n+]1onc2ncnc(N3CC[N+]4(CC3)CC[N+]3(CCN(c5ncnc6no[n+]([O-])c56)CC3)CC4)c21 | EC50 | TB-40E | HELF | plaque count | 0.18 µM |
| Nc1nc2c(ncn2COC(CO)CO)c(=O)[nH]1 | EC90 | VR6189 (ganciclovir-susceptible) |  | plaque count | 3.5 µM |
| O=C(NCCc1ccccc1)C1=Cc2ccncc2CC1 | EC50 | AD169 | HS68 | plaque count | 2.4 µM |
| CCCc1cn([C@H]2C[C@H](O)[C@@H](CO)O2)c(=S)[nH]c1=O | EC50 | T-137 | MRC-5 | plaque count | >277.6 µM |
| CC/C=C\Cn1c(=O)sc2c(=O)[nH]c(N)nc21 | EC50 | 17517 (DHPG-S) |  | plaque count | 0.16 µM |
| OC[C@@H]1O[C@H](n2c(Br)nc3cc(Cl)c(Cl)cc32)[C@@H](O)[C@H]1O | EC50 | AD169 | MRC-5 | plaque count | 1.3 µM |
| O=C(NCc1ccc(Cl)cc1)c1c[nH]c2c(F)cc(CCCO)cc2c1=O | EC50 | GDGrP53 |  | plaque count | 0.3 µM |
| CCCCCCCCCCCCCCCCCCOCCOP(=O)(O)CO[C@H](CO)Cn1ccc(N)nc1=O | EC50 | C9208/3-3-1 | MRC-5 | plaque count | 0.001 µM |
| C[C@@H]1O[C@@H](n2c(Cl)nc3cc(Cl)c(Cl)cc32)[C@H](O)[C@@H]1O | EC90 | 2916 (bdcrb maribavir-resistant) | HFF | virus yield | 0.7 µM |
| Nc1ccn(C[C@H]2COP(=O)(O)CO2)c(=O)n1.O=C(O)P(=O)(O)O | EC50 | PC92 (ganciclovir- foscarnet-susceptible) | MRC-5 | plaque count | 1.16 µM |
| Nc1nc2c(ncn2C=C2CC2CO)c(=O)[nH]1 | EC50 | AD169 | HFF | plaque count | 1.2 µM |
| COc1cccc(N2CCN(C3=Nc4c(F)cccc4[C@H](CC(=O)O)N3c3cc(C(F)(F)F)ccc3OC)CC2)c1 | EC50 | GDGrP53 |  | plaque count | 0.0029 µM |
| O=C(NCc1ccc(Cl)cc1)c1c[nH]c2ccc(CCCO)cc2c1=O | EC90 | AD169 |  | plaque count | 2.2 µM |
| Cc1c(Br)cc(Br)c2ncc(CSC(C)c3cccs3)n12 | EC50 | AD169 | HEL | plaque count | >50 µg/mL |
| CCc1cn([C@H]2C[C@H](O)[C@@H](CO)O2)c(=S)[nH]c1=O | EC50 | AD169 | MRC-5 | plaque count | >277.6 µM |
| Nc1ccn(C[C@@H](CO)OCP(=O)(O)O)c(=O)n1 | EC50 | Toledo | HFF | plaque count | 1.9 µM |
| Nc1ccn(C[C@@H](CO)OCP(=O)(O)O)c(=O)n1 | EC50 | P8 ganciclovir-sensitive | MRC-5 | plaque count | 0.4 µg/mL |
| Cn1cc(C(=O)NCc2ccc(Cl)cc2)c(=O)c2cc(CN3CCOCC3)ccc21 | EC90 | AD169 | HFF | plaque count | 8.9 µM |
| O[C@@H]1[C@H](O)[C@H](O)CO[C@H]1n1c(Br)nc2cc(Cl)c(Cl)cc21 | EC50 | 1117R (drug-resistant) | HFF | plaque count | 3.5 µM |
| Nc1ccn(C=C2C[C@H]2CO)c(=O)n1 | EC50 | AD169 | HFF | plaque count | 23.8 µM |
| OC[C@H]1O[C@@H](n2c(Br)nc3cc(Cl)c(Cl)cc32)[C@H](O)[C@@H]1O | EC50 | XBAF.4 (alaalacysarg593DEL) | MRC-5 | hybridisation | 0.2 µM |
| Cc1c(Br)cc(Br)c2ncc(CSCc3ccco3)n12 | EC50 | DAVIS | HEL | plaque count | 4 µg/mL |
| OC[C@H]1O[C@@H](n2c(Br)nc3cc(Cl)c(Cl)cc32)[C@H](O)[C@@H]1O | EC50 | 759RD100 (drug-resistant) | HFF | plaque count | 0.4 µM |
| Nc1nc2c(ncn2COC(CO)CO)c(=O)[nH]1 | EC50 | AD169 |  | plaque count | 11.8 µM |
| Nc1nc2c(ncn2COC(CO)CO)c(=O)[nH]1 | EC50 | D10 (D341E) |  | plaque count | 5.4 µM |
| CCCCCCCCCCCCCCCCCCOC[C@H](COP(=O)(O)CO[C@H](CO)Cn1ccc(N)nc1=O)OCc1ccccc1 | EC50 | DAVIS | HFF | plaque count | 0.006 µM |
| O=C(O)P(=O)(O)O | EC75 | PAAR | MRC-5 | plaque count | 122 µM |
| OC[C@H]1O[C@@H](n2c(Br)nc3cc(Cl)c(Cl)cc32)[C@H](O)[C@@H]1O | EC90 | 2916 (bdcrb maribavir-resistant) | HFF | virus yield | 0.38 µM |
| Nc1nc2c(ncn2COC(CO)CO)c(=O)[nH]1 | EC50 | TOWNE | HFF | plaque count | 7.2 µM |
| OC[C@H]1O[C@@H](n2c(Br)nc3cc(Cl)c(Cl)cc32)[C@H](O)[C@@H]1O | EC50 | Isolate D10 (D344E mutation) | HFF | plaque count | 7.3 µM |
| Cc1ccccc1CSCc1cnc2c(Br)cc(Br)c(C)n12 | EC50 | DAVIS | HEL | plaque count | >50 µg/mL |
| O=C1NC[C@@H]2C34CC5CC(CC(C5)[C@H]3[C@]2(O)c2ccccc21)C4 | EC50 | AD169 | HEL | plaque count | >20 µg/mL |
| Nc1nc(NC2CC2)c2ncn(C=C3CC3CO)c2n1 | EC50 | Toledo | HFF | plaque count | 5.5 µM |
| O=C1c2ccccc2C(=O)N1[C@H]1CC2CC3CC(C2)C1C3 | EC50 | AD169 | HEL | plaque count | >20 µg/mL |
| O=C(O)P(=O)(O)O | EC50 | U9070 (ganciclovir-resistant) | HEL | plaque count | 85 µM |
| CC1(C)OCC(COC(=O)O)(CC(COC(=O)O)OC(=O)O)O1 | EC50 | AD169 | HFF |  | >100 µM |
| Nc1nc2c(ncn2[C@@H]2C[C@H](CO)[C@H]2CO)c(=O)[nH]1.O=C(O)P(=O)(O)O | EC50 | Towne (ganciclovir- foscarnet-susceptible) | MRC-5 | plaque count | 1.18 µM |
| Nc1ncnc2ncn(/C=C3/C(F)C3(CO)CO)c12 | EC50 | AD169 | HFF | cytopathic effect | >60 µM |
| Nc1nc2c(ncn2COC(CO)CO)c(=O)[nH]1 | EC50 | Isolate D10 (D344E mutation) | HFF | plaque count | 4.6 µM |
| O=C1NCC2(C(=O)C3C=CC=CC13)C1CC3CC(C1)CC2C3 | EC50 | AD169 | HEL | plaque count | >20 µg/mL |
| CC(C)Oc1ccccc1CNC(=O)c1ccc2cnccc2n1 | EC50 | C8704 | MRC-5 | plaque count | 0.03 µM |
| CC(C)Nc1nc2cc(Cl)c(Cl)cc2n1[C@H]1O[C@@H](CO)[C@H](O)[C@@H]1O | EC90 | TOWNE | HFF | virus yield | 0.3 µM |
| Nc1ccn(C[C@@H](CO)OCP(=O)(O)O)c(=O)n1 | EC50 | 1117 3-1-2 (CDV-resistant) |  | plaque count | 2.27 µM |
| Cc1cn([C@H]2CC3(CO2)COC(C)(C)O3)c(=O)[nH]c1=O | EC50 | AD169 | HFF |  | >100 µM |

Repeating the final 4 entries:

smiles	measure	strain	cells	method	result
CC(C)Oc1ccccc1CNC(=O)c1ccc2cnccc2n1	EC50	C8704	MRC-5	plaque count	0.03 µM
CC(C)Nc1nc2cc(Cl)c(Cl)cc2n1[C@H]1O[C@@H](CO)[C@H](O)[C@@H]1O	EC90	TOWNE	HFF	virus yield	0.3 µM
Nc1ccn(C[C@@H](CO)OCP(=O)(O)O)c(=O)n1	EC50	1117 3-1-2 (CDV-resistant)		plaque count	2.27 µM
Cc1cn([C@H]2CC3(CO2)COC(C)(C)O3)c(=O)[nH]c1=O	EC50	AD169	HFF		>100 µM